Measured values from several laboratories, pooled; numbers as filed in NIAID ChemDB.

Common to all: whole-cell or culture tests; agent: Mycobacterium avium; endpoint: MIC

a–b is a range or a potency band. Conditions beyond the fields shown may differ between rows. An empty or dashed field is not shown.

| structure | strain | read by | setting | result |
|---|---|---|---|---|
| O=c1oc2ccc(Br)cc2c(=S)n1-c1ccc(Cl)c(Cl)c1 | MY330/88 | - | 14 d | 32 µM |
| CC(C)N=c1cc2n(-c3ccc(Cl)cc3)c3ccccc3nc-2cc1Nc1ccc(Cl)cc1 | 1389 | - | - | 3.3 µg/mL |
| O=C(Oc1ccc(Cl)cc1C(=O)Nc1ccc(Cl)c(Cl)c1)c1cnccn1 | 330/88 | - | 21 d | 16 µM |
| c1ccc(/C(Cn2ccnc2)=N/OCc2cccc3ccccc23)cc1 | 103317 | - | - | 23.4 µM |
| CCCCOc1ccc(NC(=O)OCCN(C)C)cc1 | MY330/88 | - | - | 62.5 µM |
| Cc1ccn2c(C(=O)NCc3ccc(N4CCC5(CC4)OCC(C)CO5)c(F)c3)c(C)nc2c1 | 2151 | resazurin | - | 2–10 µM |
| O=C(Oc1ccc(Br)cc1C(=O)Nc1ccc(C(F)(F)F)cc1)c1cnccn1 | 330/88 | - | 21 d | 4 µM |
| Cc1cccc(C(N)=Nc2nc(-c3ccccn3)cc3ccccc23)c1 | 101 | - | - | 2 µg/mL |
| O=C(Oc1ccc(Cl)cc1)c1cnccn1 | 330/88 | - | 21 d | >500 µM |
| O=C(Nc1ccc(Br)cc1)c1ccc(Br)cc1OS(=O)(=O)c1ccccc1 | 330/88 | - | 21 d | 8 µM |
| Cc1ccn2c(C(=O)NCc3ccc(N4CCC(c5ccc(OC(F)(F)F)cc5)CC4)cc3)c(C)nc2c1 | 101 | resazurin | - | <2 µM |
| Fc1cccc(CSc2ncn[nH]2)c1 | MY330/88 | - | - | 500 µM |
| Cc1ccc(-n2c(=O)oc3ccccc3c2=O)cc1 | CNCTC MY330/88 | - | - | 31 µM |
| O=C(Oc1cc(Cl)ccc1C(=O)Nc1ccc(C(F)(F)F)cc1)c1cnccn1 | 330/88 | - | 14 d | 4 µM |
| O=c1oc2cc(Cl)ccc2c(=O)n1-c1cccc(F)c1 | CNCTC MY330/88 | - | - | 16 µM |
| C(=C\c1ccccc1)/CNc1cccc(N2CCSCC2)c1 | 103317 | - | - | 98.8 µM |
| COc1ccc(-n2c(=O)oc3ccc(F)cc3c2=O)cc1 | CNCTC MY330/88 | - | - | 16 µM |
| O=C(Nc1ccc(Cl)cc1)c1cc(Cl)ccc1OS(=O)(=O)c1ccccc1 | 330/88 | - | 14 d | 32 µM |
| Cc1ccn2c(C(=O)NCc3ccc(N4CCC(c5ccc(C(F)(F)F)cc5)CC4)nc3)c(C)nc2c1 | 101 | resazurin | - | <2 µM |
| O=C(Nc1ccccc1N1CCSCC1)c1ccc(-c2ccccc2)cc1 | 103317 | - | - | 82.5 µM |
| CCCOc1ccccc1NC(=O)OCC[NH+]1CCCC1 | MY330/88 | - | - | 1000 µM |
| Fc1ccc(-n2c(=S)oc3ccc(Br)cc3c2=S)cc1 | MY330/88 | - | 14 d | 16 µM |
| O=C(Nc1cccc(F)c1)c1cc(Cl)ccc1OS(=O)(=O)c1ccccc1 | 330/88 | - | 21 d | 500 µM |
| Clc1ccc(C(Cn2ccnc2)OCc2ccc(-c3ccccc3)cc2)cc1 | 103317 | - | - | 5.15 µM |
| CCCCCCCCCOc1ccccc1NC(=O)OCCN(C)C | MY330/88 | - | - | 8 µM |
| Cc1ccc(-n2c(=O)oc3ccc(F)cc3c2=O)cc1 | CNCTC MY330/88 | - | - | 16 µM |
| O=C(Oc1ccc(Cl)cc1C(=O)Nc1ccc(F)cc1)c1cnccn1 | 330/88 | - | 14 d | 8 µM |
| Cc1ccn2c(C(=O)NCc3ccnc(N4CCC(c5ccc(C(F)(F)F)cc5)CC4)c3)c(C)nc2c1 | 101 | resazurin | - | 2–10 µM |
| Cc1ccc2oc(=O)n(-c3ccc(Cl)c(Cl)c3)c(=S)c2c1 | MY330/88 | - | 14 d | 8 µM |
| Clc1ccc(CNc2ccccc2N2CCSCC2)cc1 | 103317 | - | - | 103 µM |
| O=c1oc2ccc(Cl)cc2c(=O)n1-c1ccc(F)cc1 | CNCTC MY330/88 | - | - | 31 µM |
| Cc1ccc2oc(=O)n(-c3cccc(F)c3)c(=S)c2c1 | MY330/88 | - | 21 d | 16 µM |
| O/N=C(\Cn1ccnc1)c1ccc(Cl)cc1Cl | 103317 | - | - | 118 µM |
| Cn1cnnc1SCc1ccc([N+](=O)[O-])cc1[N+](=O)[O-] | MY330/88 | - | - | >1000 µM |
| CC[C@H]1OC(=O)[C@H](C)C(=O)[C@H](C)[C@@H](O[C@@H]2O[C@H](C)C[C@H](N(C)C)[C@H]2O)[C@](C)(OC)C[C@@H](C)C(=O)[C@H](C)[C@H]2N(CCCCn3cnc(-c4cccnc4)c3)C(=O)O[C@]12C | Isolate 1295 | - | - | 20 µg/mL |
| Cc1ccn2c(C(=O)NCc3ccc4c(c3)CCO4)c(C)nc2c1 | 101 | resazurin | - | <2 µM |
| CCCCCCOc1ccc(NC(=O)OCCN2CCOCC2)cc1 | MY330/88 | - | - | 32 µM |
| O=[N+]([O-])c1ccccc1CSc1ncn[nH]1 | MY330/88 | - | - | 1000 µM |
| O=c1oc2ccc(Cl)cc2c(=O)n1-c1ccc(C(F)(F)F)cc1 | CNCTC MY330/88 | - | - | 8 µM |
| O=c1oc2ccc(F)cc2c(=S)n1-c1ccc(C(F)(F)F)cc1 | MY330/88 | - | 14 d | 32 µM |
| O=c1oc2ccc(F)cc2c(=O)n1-c1cccc(F)c1 | CNCTC MY330/88 | - | - | 62 µM |
| Cc1ccc2oc(=O)n(-c3ccc(F)cc3)c(=S)c2c1 | MY330/88 | - | 21 d | 4 µM |
| O=C(Nc1ccc(C(F)(F)F)cc1)c1ccc(Cl)cc1OS(=O)(=O)c1ccccc1 | 330/88 | - | 14 d | 250 µM |
| Fc1cccc(Cl)c1CSc1ncn[nH]1 | MY330/88 | - | - | 1000 µM |
| C(=C\c1ccccc1)/CNc1ccc(Cn2ccnc2)cc1 | 103317 | - | - | 34.6 µM |
| S=c1oc2ccc(Br)cc2c(=S)n1-c1ccccc1 | MY330/88 | - | 21 d | 16 µM |